Measurements reported in PubChem BioAssay AID504761 (Drosophila RNAi Screening Center, 2011).
Purpose: 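Fly genes whose silencing reduces dengue virus type 2 infection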 (primary screen). System: D.Mel-2 cells from Drosophila. Reagent: long dsRNA against Drosophila genes. Treatment: infection with dengue virus type 2; dose and infection time not stated. Detection: 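Per well on two replicate plates, imaging gave the percent of cells positive for viral envelope protein, ranked by infection, and a nuclear count of cells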. Scale: infection score: higher = more virus-infected cells. Rule for the call: 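Very low infection ranking in both replicate wells (chance probability at most 0.065), then a retest showing infection dropped 1.5-fold or more at p below 0.05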. Calls: active = confirmed: knock-down lowers infection; inactive = not picked or not confirmed.
The deposit covers about 22,000 reagents; below is an unselected part of those that have a named target and a result. In the full data, 116 (0.52%) were called active. 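Calls depend on retest data that are not deposited; infection was ranked per plate without normalising between plates; the unit of the infection score is not given.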 Entries without a mark were called inactive. Names joined by + are all predicted targets of the reagent. Further read-outs or replicates are left out here. The record does not give: the amount of reagent, the time to read-out.

predicted target	dsRNA	infection score, replicate 1	infection score, replicate 2
dbf	DRSC02570	11.7	8.85
dbf	DRSC27207	25.2	12.6
Pex11c	DRSC14677	1.14	3.16
CG9733	DRSC16549	8.22	0.83
lms	DRSC06387	2.06	2.28
lms	DRSC27541	2.51	7.54
CG34176	DRSC00435	2.64	1.71
Pgam5-2	DRSC04278	5.62	5.25
CG14626	DRSC18631	7.04	9.64
CG14626	DRSC27786	9.21	14
dtn	DRSC17939	3.55	5.21
dtn	DRSC29824	10.2	9.51
Keap1	DRSC15528	13.3	38.4
Keap1	DRSC29209	9.26	12.5
CG11406	DRSC04010	1.21	0.32
CG11406	DRSC04108	1.5	5.74
CG30289	DRSC03870	4.26	3.09
CG12620	DRSC02177	2.74	0.85
CG12620	DRSC24601	4.8	5.41
Muc91C	DRSC16297	7.51	19.8
Muc91C	DRSC21696	2.98	4
Muc91C	DRSC25918	4.84	7.33
Gdap2	DRSC06789	5.83	23.5
Gdap2	DRSC06790	14.4	15.6
fred	DRSC00349	8.26	2.15
fred	DRSC00599	3.17	13.7
fred	DRSC00601	2.26	3.57
fred	DRSC00602	3.08	2.03
fred	DRSC21906	1.35	10.4
CG34444	DRSC06435	34.3	11.6

The list goes on; the last 3 above are carried over.
predicted target	dsRNA	infection score, replicate 1	infection score, replicate 2
fred	DRSC00602	3.08	2.03
fred	DRSC21906	1.35	10.4
CG34444	DRSC06435	34.3	11.6
fu	DRSC20333	6.75	2.98
fu	DRSC27965	8.6	8.17
mus304	DRSC11372	2.79	2.42
Caf1-180	DRSC17807	1.53	1.07
Caf1-180	DRSC24150	2.13	6.1
CG4770	DRSC15639	2.09	5.09
Lcp65Ad	DRSC11211	1.76	2.48
Lcp65Ad	DRSC24630	13.6	0.66
CSN5	DRSC16592	14.8	9.15
CSN5	DRSC22381	1.46	20.2
CSN5	DRSC27904	9.41	46.2
CG8927	DRSC16458	1.62	6.6
CG8927	DRSC25722	3.16	4.29
5-HT1B	DRSC05031	3.36	3.46
5-HT1B	DRSC05769	3.37	6.48
5-HT1B	DRSC25996	9.57	2.88
srw	DRSC08201	2.92	1.13
Cyp12b2	DRSC07364	2.21	4.76
CG11076	DRSC17197	0.62	8.33
Cpr78Cc	DRSC11846	5.31	3.63
Drep4	DRSC03408	6.3	5.66
LysP	DRSC08676	9.07	3.26
LysP	DRSC25210	5.92	2.56
Nop60B	DRSC04627	15.1	46.7
pea	DRSC07120	38.4	31.3
pea	DRSC29708	22.2	13.5
CG33230	DRSC08602	15.4	20.3
c11.1	DRSC18749	3.12	2.94
Drsl4	DRSC08034	0.14	0.49
Drsl4	DRSC27159	27.8	16.7
CG13843	DRSC14693	17.1	
g	DRSC20335	28.1	20.3
g	DRSC26118	8.48	5.23
CG33346	DRSC22898	1.07	9.51
CG5810	DRSC15880	11.7	25.9
CG5810	DRSC21921	5.67	2.94
Atg101	DRSC20020	4.25	3.58
mRpS11	DRSC15732	9.26	22.1
CG6443	DRSC02958	15.2	13.8
CG6443	DRSC30036	8.12	6.48
CG11791	DRSC14391	4.15	4.11
CG11791	DRSC29499	8.2	
CG3176 + CR18166 + CG32817	DRSC17271	0.15 (active)	0.02
CG3176 + CR18166 + CG32817	DRSC17282	0.52	0.44
CG3176 + CR18166 + CG32817	DRSC18288	2.42	10.8
CG3176 + CR18166 + CG32817	DRSC28432	12.6	14
